Measured values published in patent US20190167593A1, “CYCLOHEXENE DERIVATIVE OR PHARMACEUTICALLY ACCEPTABLE SALT THEREOF, AND APPLICATION OF SAME” (priority 2016, published 2019).

Biological target: H274Y drug-resistant mutant NA (Influenza A virus, UniProt P03468, H260Y)
Details: read-out: DRUG-RESISTANT MUTANT IC50

**Q.** Peramivir was tested. Which IC50 did it give?
**A.** 26.9 nM
